System: recombinant TcOYE
Settings: 500 μM NADPH or NADH, argon-bubbled 0.1 M phosphate buffer pH 7.0

`CCCCOOCCCC` was tested, and the “Reduction of the compound by TcOYE (substrate specificity)” value was “reduced”.

Reference: patent publication US20060275329A1 (Osaka Bioscience Institute, priority 2002, published 2006)
